Anti-infective test results gathered from many reports (values: NIAID ChemDB through PubChem).

All rows: tests in culture

Rows are shuffled and stem from different studies. A number after MIC or MFC names an inhibition level or a share of isolates. An empty or dashed field is not shown. a–b is a range or a potency band.

{"structure": "CC[C@H]1OC(=O)[C@H](C)[C@@H](OC(=O)CCCc2ccccc2)[C@H](C)[C@@H](O[C@@H]2O[C@H](C)C[C@H](N(C)C)[C@H]2O)C(C)(O)C[C@@H](C)/C(=N\\OCCCOc2ccccc2)[C@H](C)[C@@H](O)[C@]1(C)O", "organism": "Mycobacterium avium complex", "strain or isolate": "20039 (clarithromycin-susceptible)", "measure": "MIC", "result": "6.25 µg/mL"}
{"structure": "FC(F)(F)c1cccc(Oc2ccc(Nc3ncnc4ccoc34)cc2)c1", "organism": "Mycobacterium bovis BCG", "read by": "luminescence", "measure": "MIC50", "result": ">20 µM"}
{"structure": "NCC[C@H](O)C(=O)N[C@@H]1C[C@H](N)[C@@H](O[C@H]2O[C@H](CN)[C@@H](O)[C@H](O)[C@H]2O)[C@H](O)[C@H]1O[C@H]1O[C@H](CO)[C@@H](O)[C@H](N)[C@H]1O", "organism": "Mycobacterium abscessus", "strain or isolate": "Clinical isolate MR313292", "read by": "broth dilution / visual reading", "measure": "MIC100", "result": "4 µg/mL"}
{"structure": "Clc1ccc(/C=C/n2nnc(-c3ccccc3)n2)cc1", "organism": "Mycobacterium luteus", "strain or isolate": "ATCC 21881", "read by": "broth dilution", "measure": "MIC", "result": ">200 µg/mL"}
{"structure": "CCCCN(C(=O)Nc1ccc(F)cc1)[C@@H](CC(=O)OCC)C1O[C@@H]2OC(C)(C)O[C@@H]2[C@H]1OC", "organism": "Mycobacterium aurum", "measure": "MIC", "result": ">25 µg/mL"}
{"structure": "Cc1ccc2oc(=S)n(-c3ccc(F)cc3)c(=S)c2c1", "organism": "Mycobacterium kansasii", "strain or isolate": "My 235/80", "conditions": "14 d", "measure": "MIC", "result": "8 µM"}
{"structure": "FC(F)(F)c1ccc(CCNc2ncnc3ccccc23)cc1", "organism": "Mycobacterium bovis BCG", "read by": "luminescence", "measure": "MIC50", "result": ">20 µM"}
{"structure": "CO[C@H]1/C=C/O[C@@]2(C)Oc3c(C)c(O)c4c(O)c(c(/C=N/N5CCN(C6CCCC6)CC5)c(O)c4c3C2=O)NC(=O)/C(C)=C\\C=C\\[C@H](C)[C@H](O)[C@@H](C)[C@@H](O)[C@@H](C)[C@H](OC(C)=O)[C@@H]1C", "organism": "Mycobacterium avium intracellulare", "strain or isolate": "SKV", "measure": "MIC", "result": "0.25 µg/mL"}
{"structure": "CCOC(=O)C[C@@H](C1O[C@@H]2OC(C)(C)O[C@@H]2[C@H]1Oc1ccccc1)N(C(=O)Nc1cccc(C(C)=O)c1)C1CC1", "organism": "Mycobacterium aurum", "measure": "MIC", "result": ">25 µg/mL"}
{"structure": "FC(F)(F)c1ccc(CNc2ncnc3ccccc23)c(N2CCOCC2)c1", "organism": "Mycobacterium bovis BCG", "read by": "luminescence", "measure": "MIC50", "result": ">10 µM"}
{"structure": "Cc1ccn2c(C(=O)NCc3ccc(N(C)C)cc3)c(C)nc2c1", "organism": "Mycobacterium ulcerans", "read by": "fluorescence", "measure": "MIC50", "result": "0.1–1 µg/mL"}
{"structure": "CCCCCCCCCCCCCCCCN1C(=O)N(c2ccccc2)C(=O)C[C@H]1C1OC2OC(C)(C)OC2[C@H]1OC", "organism": "Mycobacterium aurum", "measure": "MIC", "result": ">25 µg/mL"}
{"structure": "CCCCCCCCNNC(=O)O[C@H]1[C@H](O[C@@H]2[C@@H](C)[C@H](O[C@H]3C[C@@](C)(OC)[C@@H](OC(C)=O)[C@H](C)O3)[C@@H](C)C(=O)O[C@H](CC)[C@@](C)(O)[C@H](O)[C@@H](C)/C(=N/OCCCC3CCCCC3)[C@H](C)CC2(C)O)O[C@H](C)C[C@@H]1N(C)C", "organism": "Mycobacterium avium complex", "strain or isolate": "20039 (clarithromycin-susceptible)", "measure": "MIC", "result": "6.25 µg/mL"}
{"structure": "Cc1ccc(CCNc2ncnc3ccsc23)cc1", "organism": "Mycobacterium bovis BCG", "read by": "luminescence", "measure": "MIC50", "result": ">50 µM"}
{"structure": "CN1CCN(c2ccc(CNC(=O)c3c(Cl)nc4ccccn34)cn2)CC1", "organism": "Mycobacterium ulcerans", "read by": "fluorescence", "measure": "MIC50", "result": ">10 µg/mL"}
{"structure": "S=c1oc2ccc(Br)cc2c(=S)n1-c1ccc(Cl)cc1", "organism": "Mycobacterium kansasii", "strain or isolate": "My 235/80", "conditions": "21 d", "measure": "MIC", "result": "4 µM"}
{"structure": "CC[C@H]1OC(=O)[C@H](C)[C@@H](O[C@H]2C[C@@](C)(OC)[C@@H](OC(C)=O)[C@H](C)O2)[C@H](C)[C@@H](O[C@@H]2O[C@H](C)C[C@H](N(C)C)[C@H]2O)C(C)(O)C[C@@H](C)/C(=N\\OCCCc2ccccc2)[C@H](C)[C@@H](O)[C@]1(C)O", "organism": "Mycobacterium avium complex", "strain or isolate": "20092 (clarithromycin-resistant)", "measure": "MIC", "result": "6.25 µg/mL"}
{"structure": "FC(F)(F)c1ccc(Oc2ccc(Nc3ncnc4cc(C(F)(F)F)ccc34)cc2)cc1", "organism": "Mycobacterium bovis BCG", "read by": "luminescence", "measure": "MIC50", "result": ">20 µM"}
{"structure": "CC(C)N=C(N)/N=C(\\N)NOCCCOc1cc(Cl)c(Cl)cc1Cl", "organism": "Mycobacterium avium complex", "strain or isolate": "3028", "measure": "MIC", "result": "32 µg/mL"}
{"structure": "Fc1ccc2c(Nc3ccc(-c4cccc(C(F)(F)F)c4)cc3)ncnc2c1", "organism": "Mycobacterium bovis BCG", "read by": "luminescence", "measure": "MIC50", "result": ">50 µM"}
{"structure": "CCCCCCCCCCCCN(C(=O)Nc1cccc(C(C)=O)c1)[C@@H](CC(=O)OCC)C1O[C@@H]2OC(C)(C)O[C@@H]2[C@H]1Oc1ccccc1", "organism": "Mycobacterium aurum", "measure": "MIC", "result": ">25 µg/mL"}
{"structure": "FC(F)(F)Oc1cccc(CNc2ncnc3ccccc23)c1", "organism": "Mycobacterium bovis BCG", "read by": "luminescence", "measure": "MIC50", "result": ">20 µM"}
{"structure": "CC(C)=NNC(=O)c1c(C)nc2cc(C)ccn12", "organism": "Mycobacterium ulcerans", "read by": "fluorescence", "measure": "MIC50", "result": ">10 µg/mL"}
{"structure": "CCc1nc(N)nc(N)c1-c1ccc(Cl)cc1", "organism": "Mycobacterium avium complex", "strain or isolate": "DW3", "measure": "MIC", "result": "32 µg/mL"}
{"structure": "CC[C@H]1OC(=O)[C@H](C)[C@@H](OC2C[C@@](C)(OC)[C@@H](OC(=O)CC3CCCCC3)[C@H](C)O2)[C@H](C)[C@@H](O[C@@H]2O[C@H](C)C[C@H](N(C)C)[C@H]2O)C(C)(O)C[C@@H](C)/C(=N\\OCCCOc2ccccc2)[C@H](C)[C@@H](O)[C@]1(C)O", "organism": "Mycobacterium avium complex", "strain or isolate": "20092 (clarithromycin-resistant)", "measure": "MIC", "result": "3.13 µg/mL"}
{"structure": "Cc1ccc(-n2c(=S)oc3ccc(Br)cc3c2=S)cc1", "organism": "Mycobacterium kansasii", "strain or isolate": "My 235/80", "conditions": "21 d", "measure": "MIC", "result": "4 µM"}
{"structure": "Fc1ccc(N2CCN(c3ccc(Nc4ncnc5ccccc45)cc3)CC2)cc1", "organism": "Mycobacterium bovis BCG", "read by": "luminescence", "measure": "MIC50", "result": ">50 µM"}
{"structure": "C[C@@H]1CN(c2c(F)c(N)c3c(=O)c(C(=O)O)cn(C4CC4)c3c2F)C[C@H](C)N1", "organism": "Mycobacterium avium complex", "strain or isolate": "Isolate 90-1257", "measure": "MBC", "result": "1 µg/mL"}
{"structure": "Fc1ccc(-n2c(=S)oc3ccc(F)cc3c2=S)cc1", "organism": "Mycobacterium kansasii", "strain or isolate": "My 235/80", "conditions": "21 d", "measure": "MIC", "result": "16 µM"}
{"structure": "CN(C)c1ccc(CNC(=O)c2c(Cl)nc3ccccn23)cc1F", "organism": "Mycobacterium ulcerans", "read by": "fluorescence", "measure": "MIC50", "result": "0.1–1 µg/mL"}
{"structure": "CCCO/N=C1\\[C@H](C)CC(C)(O)[C@H](O[C@@H]2O[C@H](C)C[C@H](N(C)C)[C@H]2O)[C@@H](C)[C@H](OC2C[C@@](C)(OC)[C@@H](O)[C@H](C)O2)[C@@H](C)C(=O)O[C@H](CC)[C@@](C)(O)[C@H](O)[C@H]1C", "organism": "Mycobacterium avium complex", "strain or isolate": "20092 (clarithromycin-resistant)", "measure": "MIC", "result": ">50 µg/mL"}
{"structure": "Fc1ccc2c(Nc3ccc(Br)cn3)ncnc2c1", "organism": "Mycobacterium bovis BCG", "read by": "luminescence", "measure": "MIC50", "result": ">20 µM"}
{"structure": "CC[C@H]1OC(=O)[C@H](C)[C@@H](O[C@H]2C[C@@](C)(OC)[C@@H](OC(C)=O)[C@H](C)O2)[C@H](C)[C@@H](O[C@@H]2O[C@H](C)C[C@H](N(C)C)[C@H]2OC(=O)NNCc2cccc(OC)c2)C(C)(O)C[C@@H](C)/C(=N\\OCCCC2CCCCC2)[C@H](C)[C@@H](O)[C@]1(C)O", "organism": "Mycobacterium avium complex", "strain or isolate": "20039 (clarithromycin-susceptible)", "measure": "MIC", "result": "0.78 µg/mL"}
{"structure": "O=S(=O)(c1ccc(OC(F)(F)F)cc1)C1CCN(c2ccc(Nc3ncnc4cc(F)ccc34)cc2)CC1", "organism": "Mycobacterium bovis BCG", "read by": "luminescence", "measure": "MIC50", "result": ">50 µM"}
{"structure": "S=c1[nH]nc(COC(Cn2nnnc2-c2ccccc2)c2ccc(Cl)cc2)o1", "organism": "Mycobacterium luteus", "strain or isolate": "ATCC 21881", "read by": "broth dilution", "measure": "MIC", "result": "50 µg/mL"}
{"structure": "FS(F)(F)(F)(F)c1ccc(CCNc2ncnc3ccccc23)cc1", "organism": "Mycobacterium bovis BCG", "read by": "luminescence", "measure": "MIC50", "result": ">20 µM"}
{"structure": "S=c1[nH]nc(COC(Cn2nnnc2-c2ccccc2)c2ccc(Cl)cc2)n1-c1ccc(Cl)cc1", "organism": "Mycobacterium luteus", "strain or isolate": "ATCC 21881", "read by": "broth dilution", "measure": "MIC", "result": "100 µg/mL"}
{"structure": "FC(F)(F)Oc1ccc(Oc2ccc(Nc3ncnc4cc(C(F)(F)F)ccc34)cc2)cc1", "organism": "Mycobacterium bovis BCG", "read by": "luminescence", "measure": "MIC50", "result": ">50 µM"}
{"structure": "O=C(COC(Cn1nnnc1Cc1ccccc1)c1ccc(Cl)cc1)N/N=C/c1ccc(Cl)cc1", "organism": "Mycobacterium luteus", "strain or isolate": "ATCC 21881", "read by": "broth dilution", "measure": "MIC", "result": "100 µg/mL"}
{"structure": "FC(F)(F)c1cccc(Oc2ccc(Nc3ncnc4ccccc34)cc2)n1", "organism": "Mycobacterium bovis BCG", "read by": "luminescence", "measure": "MIC50", "result": ">20 µM"}
{"structure": "CCOC(=O)COC(Cn1nnnc1-c1ccccc1)c1ccc(Cl)cc1", "organism": "Mycobacterium luteus", "strain or isolate": "ATCC 21881", "read by": "broth dilution", "measure": "MIC", "result": ">200 µg/mL"}
{"structure": "FC(F)(F)c1ccc(N2CCN(c3ccc(Nc4ncnc5ccccc45)cc3)CC2)cc1", "organism": "Mycobacterium bovis BCG", "read by": "luminescence", "measure": "MIC50", "result": ">10 µM"}
{"structure": "CC1(C)N=C(N)N=C(N)N1OCCCOc1cc(Cl)c(Cl)cc1Cl", "organism": "Mycobacterium avium complex", "strain or isolate": "DW14", "measure": "MIC", "result": "1 µg/mL"}
{"structure": "O=c1oc2ccc(Cl)cc2c(=S)n1-c1cccc(F)c1", "organism": "Mycobacterium kansasii", "strain or isolate": "6509/96", "conditions": "21 d", "measure": "MIC", "result": "8 µM"}
{"structure": "Fc1cc(Nc2ncnc3ccccc23)ccc1N1CCN(c2ccc(C(F)(F)F)cc2)CC1", "organism": "Mycobacterium bovis BCG", "read by": "luminescence", "measure": "MIC50", "result": ">50 µM"}

Repeating the final 4 entries:

| structure | organism | strain or isolate | read by | conditions | measure | result |
|---|---|---|---|---|---|---|
| FC(F)(F)c1ccc(N2CCN(c3ccc(Nc4ncnc5ccccc45)cc3)CC2)cc1 | Mycobacterium bovis BCG |  | luminescence |  | MIC50 | >10 µM |
| CC1(C)N=C(N)N=C(N)N1OCCCOc1cc(Cl)c(Cl)cc1Cl | Mycobacterium avium complex | DW14 |  |  | MIC | 1 µg/mL |
| O=c1oc2ccc(Cl)cc2c(=S)n1-c1cccc(F)c1 | Mycobacterium kansasii | 6509/96 |  | 21 d | MIC | 8 µM |
| Fc1cc(Nc2ncnc3ccccc23)ccc1N1CCN(c2ccc(C(F)(F)F)cc2)CC1 | Mycobacterium bovis BCG |  | luminescence |  | MIC50 | >50 µM |